Measured values from several laboratories, pooled; numbers as filed in NIAID ChemDB.

Shared fields: growth or infection tests; species: Mycobacterium smegmatis

MIC50, MIC90 and the like: level of inhibition, or share of isolates inhibited. An empty or dashed field is not shown. Zones are inhibition diameters on agar. Neighbouring rows are from separate reports.

compound	endpoint	read by	strain or isolate	tested at	value
COC(=O)Cc1ccc2c(c1)[nH]c1ccc(Cl)cc12	MIC99	resazurin / visual reading / absorbance			>500 µg/mL
NCC[C@H](O)C(=O)N[C@@H]1C[C@H](N)[C@@H](O[C@H]2O[C@H](CN)[C@@H](O)[C@H](O)[C@H]2O)[C@H](O)[C@H]1O[C@H]1O[C@H](CO)[C@@H](O)[C@H](N)[C@H]1O	Median MIC		6 strains		0.25 µg/mL
Clc1ccc2[nH]c3ccccc3c2c1	MIC99	resazurin / visual reading / absorbance			>500 µg/mL
Cc1nn(-c2ccccc2)c2c1C(c1cn(-c3ccccc3)nc1-c1ccc(Cl)cc1)C1=C(NC(C)(c3cc(O)c(I)cc3Cl)NC1=O)O2	zone	agar diffusion / agar	NCIM 5138	1 mg/mL	5.4 mm
Cc1ccc2[nH]c3ccc(CC(=O)O)cc3c2c1	MIC99	resazurin / visual reading / absorbance			>500 µg/mL
CC1CN(c2cc3c(cc2F)c(=O)c(C(=O)O)cn3C2CC2)CC(C)N1	MIC99		KD1991 (GYRA D95Y)		2.3 µg/mL
Cc1nn(-c2ccccc2)c2c1C(c1cn(-c3ccccc3)nc1-c1ccc(Cl)cc1)C1=C(NC(C)(c3cc(O)ccc3Cl)NC1=O)O2	zone	agar diffusion / agar	NCIM 5138	0.5 mg/mL	2.3 mm
O=C(O)Cc1ccc2[nH]c3ccc(C(F)(F)F)cc3c2c1	MIC99	resazurin / visual reading / absorbance			>500 µg/mL
CC1CN(c2cc3c(cc2F)c(=O)c(C(=O)O)cn3C2CC2)CCN1	MIC99		KD1995 (GYRA D95H)		2.7 µg/mL
COc1ccc2[nH]c3ccc(CC(=O)O)cc3c2c1	MIC99	resazurin / visual reading / absorbance			>500 µg/mL
COc1c(N2CCNC(C)C2)c(F)cc2c(=O)c(C(=O)O)cn(C3CC3)c12	MIC99		KD1990 (GYRA D95A)		0.22 µg/mL
Cc1nn(-c2ccccc2)c2c1C(c1cn(-c3ccccc3)nc1-c1ccc(F)cc1)C1=C(NC(C)(c3cc(O)c(Cl)c(O)c3)NC1=O)O2	zone	agar diffusion / agar	NCIM 5138	0.1 mg/mL	4.5 mm
CC(C)N1CCN(c2c(F)cc3c(=O)c(C(=O)O)cn(C4CC4)c3c2F)CC1	MIC99		KD2003 (GYRA D95G)		5.3 µg/mL
COc1ccc(-c2nn(-c3ccccc3)cc2C2C3=C(NC(C)(c4cc(O)c(I)cc4Cl)NC3=O)Oc3c2c(C)nn3-c2ccccc2)cc1	zone	agar diffusion / agar	NCIM 5138	0.1 mg/mL	8 mm
CC(C)N1CCN(c2cc3c(cc2F)c(=O)c(C(=O)O)cn3C2CC2)CC1	MIC99		KD2012 (GYRA G89A)		1.6 µg/mL
Cc1nn(-c2ccccc2)c2c1C(c1cn(-c3ccccc3)nc1-c1ccc(F)cc1)C1=C(NC(C)(c3cc(O)c(I)cc3Cl)NC1=O)O2	zone	agar diffusion / agar	NCIM 5138	1 mg/mL	12 mm

Again, the opening 2 rows:

compound | endpoint | read by | strain or isolate | tested at | value
COC(=O)Cc1ccc2c(c1)[nH]c1ccc(Cl)cc12 | MIC99 | resazurin / visual reading / absorbance |  |  | >500 µg/mL
NCC[C@H](O)C(=O)N[C@@H]1C[C@H](N)[C@@H](O[C@H]2O[C@H](CN)[C@@H](O)[C@H](O)[C@H]2O)[C@H](O)[C@H]1O[C@H]1O[C@H](CO)[C@@H](O)[C@H](N)[C@H]1O | Median MIC |  | 6 strains |  | 0.25 µg/mL